A mixed list of measured activities; the numbers were collected in NIAID ChemDB.

Shared fields: tests in culture; agent: HIV-1; method: plaque count; read-out: EC50

ECn: concentration that inhibits the pathogen or its effect by n%. Blank or dashed fields: not listed here. Lines come from different laboratories, so protocols vary.

Nc1nc(=O)n([C@@H]2CS[C@H](CO)O2)cc1F ; strain: RTMC (RT D67N K70R T215F K219Q) ; changes: RT-D67N K70R T215F K219Q ; cell line: HT4 + HT4 LacZ-1 ; value: 0.64 µM
O=C1N(c2ccccc2)c2ccccc2C1(CC1=CCN(CC2CC2)CC1)CC1=CCN(CC2CC2)CC1 ; strain: RF ; cell line: MT-2 ; value: >10 µM
O=c1[nH]cnc2c1ncn2[C@H]1CC[C@@H](CO)O1 ; strain: RTMC ; changes: RT-D67N K70R T215Y K219Q ; cell line: HT4 + HT4 LacZ-1 ; value: 2 µM
Nc1ccn([C@H]2C=C[C@@H](CO)O2)c(=O)n1 ; strain: HXB2 ; changes: RT-L74V ; cell line: CD4+HELA + HeLa ; value: 0.7 µM
CCCCCCCCCCCCCC(=O)OC[C@H](COP(=O)(O)OP(=O)(O)OC[C@@H]1CC[C@H](n2cc(C)c(=O)[nH]c2=O)O1)OC(=O)CCCCCCCCCCCCC ; strain: A018A Clinical isolate ; cell line: HT4 + HT4-6C ; value: 6 µM
Nc1ncnc2c1ncn2CCOCP(=O)(O)O ; strain: IIIB ; cell line: HELA-T4 + HeLa ; value: 0.9 µM
CN1CCC(CC2(CC3CCN(C)CC3)C(=O)N(c3ccccc3)c3ccccc32)CC1 ; strain: RF ; cell line: MT-2 ; value: <2 µM
C[C@H]1C[C@]1(Cn1cnc2c(N)ncnc21)OCP(=O)(O)O ; strain: NL4-3 ; cell line: HT4 + HeLa ; value: >100 µM
CCCCCCCCCCCCCCCCCCOC[C@@H](COP(=O)(O)C(=O)O)OCCCCCCCC ; cell line: HT4 + HT4-6C ; value: 1.8 µM
Cc1cn([C@H]2C[C@H](N=[N+]=[N-])[C@@H](CO)O2)c(=O)[nH]c1=O ; strain: P035A (RT-T215Y) ; changes: RT-T215Y ; cell line: HT4 + HT4-6C ; value: 0.56 µM
CC#Cc1cn([C@@H]2O[C@H](COP(=O)(NCCC)Oc3ccccc3)[C@@H](O)[C@@H]2O)c(=O)[nH]c1=O ; strain: HXB2 ; cell line: HeLa ; value: >50 µM
CCCCCCCCCCCCSCC(COP(=O)([O-])OCC[N+](C)(C)C)OCCCCCCCCC(=O)OCC(=O)OC[C@H]1O[C@@H](n2cc(C)c(=O)[nH]c2=O)C[C@@H]1N=[N+]=[N-] ; strain: Clinical isolate H112-2 pre-AZT ; cell line: CEM + CEM-SS ; value: 0.01 µM
Cc1cn([C@H]2CC[C@@H](CO)O2)c(=O)[nH]c1=O ; cell line: MT-4-6C + MT-4 ; value: 100 µM
CC#Cc1cn([C@@H]2O[C@H](COP(=O)(O)Oc3ccccc3)[C@@H](O)[C@@H]2O)c(=O)[nH]c1=O ; strain: HXB2 ; cell line: HeLa ; value: >50 µM
O=c1[nH]c(=O)n([C@H]2C[C@H](F)[C@@H](CO)O2)cc1Cl ; strain: RT M184V (3TC FTC resistant) ; changes: RT-M184V ; cell line: CD4+HELA + HeLa ; value: 17.6 µM
CCCCCCCCCCCCSCC(COP(=O)([O-])OCC[N+](C)(C)C)OCCCCCCCCO ; strain: R5X4 WT ; cell line: CEM + CEM-SS ; value: 0.16 µM
S=C(NCCc1cccs1)Nc1ccc(Br)cn1 ; strain: M893-1 Clinical isolate NRTI-resistant ; changes: RT-K70R ; cell line: HT4 + HeLa ; value: 0.18 µM
CCCCCCCCCCCCCCCCCCOC[C@@H](COP(=O)(O)C(=O)O)OCCCCCCCCCCCC ; cell line: HT4 + HT4-6C ; value: >100 µM
O=C(c1ccccc1)N1CCC(CC2C(=O)N(c3ccccc3)c3ccccc32)CC1 ; strain: RF ; cell line: MT-2 ; value: <11 µM
O=C(O)P(=O)(O)O ; strain: LAI ; cell line: CEM ; value: 133 µM
CCOC(=O)N1CCC(CC2C(=O)N(c3ccccc3)c3ccccc32)CC1 ; strain: RF ; cell line: MT-2 ; value: <11 µM
Cc1cn([C@H]2C[C@H](N=[N+]=[N-])[C@@H](CO)O2)c(=O)[nH]c1=O ; strain: LAI ; cell line: HT4LACZ-1 + HT4 LacZ-1 ; value: 0.006 µM
CC#Cc1cn([C@@H]2O[C@H](COP(=O)(O)Oc3c(C)cccc3C)[C@@H](O)[C@@H]2O)c(=O)[nH]c1=O ; strain: HXB2 ; cell line: HeLa ; value: >5 µM
C[C@H]1C[C@]1(Cn1cnc2cnc(N)nc21)OCP(=O)(O)O ; strain: NL4-3 ; cell line: HT4 + HeLa ; value: >100 µM
CCCCCCCCCCCCCCCCCCOCC(COP(=O)(O)C(=O)O)(OC)OC ; cell line: HT4 + HT4-6C ; value: 0.6 µM
Cc1cn([C@H]2C[C@H](N=[N+]=[N-])[C@@H](CO)O2)c(=O)[nH]c1=O ; strain: HXB2 ; cell line: HELA/CD4 + HELA CD4+ ; value: 0.02 µM
CCCCCCCCCCCCCCCCCCOC[C@@H](O)COP(=O)(O)C(=O)O ; cell line: HT4 + HT4-6C ; value: 2.6 µM
Cc1cn([C@H]2C[C@H](N=[N+]=[N-])[C@@H](CO)O2)c(=O)[nH]c1=O ; strain: HXB2 WT ; cell line: CEM + CEM-SS ; value: 0.0001 µM
CCCCCCCCCCCCCC(=O)OC[C@@H](COP(=O)(O)OC[C@@H]1CC[C@H](n2cc(C)c(=O)[nH]c2=O)O1)OC(=O)CCCCCCCCCCCCC ; cell line: HeLa + HELA CD4+ ; value: 25 µM
Nc1nc(=O)n([C@@H]2CS[C@H](CO)O2)cc1F ; strain: HXB2 ; changes: RT-M184I ; cell line: HELA/CD4 + HELA CD4+ ; value: 9.29 µM
O=C(O)P(=O)(O)O ; strain: MN ; cell line: HT4 + HT4-6C ; value: 133 µM
Nc1ccn([C@H]2CC[C@@H](CO)O2)c(=O)n1 ; strain: HIVRTMC (RT D67N K70R L74V T215F K219Q) ; changes: RT-D67N K70R L74V T215F K219Q ; value: 2 µM
CC#Cc1cn([C@@H]2O[C@H](COP(=O)(O)OCC(F)(F)F)[C@@H](O)[C@@H]2O)c(=O)[nH]c1=O ; strain: HXB2 ; cell line: HeLa ; value: >50 µM
O=c1[nH]cnc2c1ncn2[C@H]1CC[C@@H](CO)O1 ; strain: RTMC(181 184) (RT-D67N K70R Y181C M184V 215F 219Q) ; changes: RT-D67N K70R Y181C M184V T215F K219Q ; cell line: HT4 + HT4 LacZ-1 ; value: 2.04 µM
Nc1ccn([C@H]2CC[C@@H](CO)O2)c(=O)n1 ; strain: HXB2 ; changes: Dideoxynucleoside-resistant (RT L74V) ; cell line: HELA/CD4 + HELA CD4+ ; value: 1.15 µM
CCCCCCCCCCCCCCCCCC(=O)NCC(COP(=O)(O)O)OCC ; strain: IIIB ; cell line: CEM + CEM-SS ; value: >100 µM
Cc1cn([C@H]2C[C@H](N=[N+]=[N-])[C@@H](CO)O2)c(=O)[nH]c1=O ; strain: LAV-1 ; cell line: PBMC(PHA STIM.) + PBMC ; value: 0.006 µM
C1CNCCNCCCN[C@H]([C@@H]2CNCCCNCCNCCCN2)CNC1 ; strain: IIIB ; cell line: MT-4 ; value: 0.43 µM
Cc1cn([C@H]2CC[C@@H](CO)O2)c(=O)[nH]c1=O ; strain: AZT-resistant A012D Clinical isolate ; cell line: HT4 + HT4-6C ; value: 290 µM
CC1=C(/C=C/C(C)=C/C=C/C(C)=C/C(=O)O)C(C)(C)CCC1 ; strain: HTLV-III ; cell line: MT-4 ; value: <5 µg/mL
Nc1ccn([C@H]2CC[C@@H](CO)O2)c(=O)n1 ; strain: HXB2 ; changes: RT-L74V ; cell line: CD4+HELA + HeLa ; value: 1.28 ± 0.17 µM

The first 6 rows once more:

structure | strain | changes | cell line | value
Nc1nc(=O)n([C@@H]2CS[C@H](CO)O2)cc1F | RTMC (RT D67N K70R T215F K219Q) | RT-D67N K70R T215F K219Q | HT4 + HT4 LacZ-1 | 0.64 µM
O=C1N(c2ccccc2)c2ccccc2C1(CC1=CCN(CC2CC2)CC1)CC1=CCN(CC2CC2)CC1 | RF |  | MT-2 | >10 µM
O=c1[nH]cnc2c1ncn2[C@H]1CC[C@@H](CO)O1 | RTMC | RT-D67N K70R T215Y K219Q | HT4 + HT4 LacZ-1 | 2 µM
Nc1ccn([C@H]2C=C[C@@H](CO)O2)c(=O)n1 | HXB2 | RT-L74V | CD4+HELA + HeLa | 0.7 µM
CCCCCCCCCCCCCC(=O)OC[C@H](COP(=O)(O)OP(=O)(O)OC[C@@H]1CC[C@H](n2cc(C)c(=O)[nH]c2=O)O1)OC(=O)CCCCCCCCCCCCC | A018A Clinical isolate |  | HT4 + HT4-6C | 6 µM
Nc1ncnc2c1ncn2CCOCP(=O)(O)O | IIIB |  | HELA-T4 + HeLa | 0.9 µM